## Genome-wide point mutation profile of HIV-1: protease

Protein: protease of HIV-1 NL4-3, numbered from its first residue. The source prints no sequence; the chain below is taken from UniProt P12497, a closely related isolate, and fits the source at the 87 positions it covers.
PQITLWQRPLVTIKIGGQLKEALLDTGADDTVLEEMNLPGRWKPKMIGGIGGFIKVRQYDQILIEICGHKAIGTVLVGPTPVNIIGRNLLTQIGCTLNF
Effects on overlapping genes or RNA elements are not listed.

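Random point mutant libraries of HIV-1 NL4-3, one for each of seven fragments, were passaged in CEM T lymphocytes. Sequencing gave the RC index: frequency after two rounds over frequency in the input plasmid.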

Values are the RC index; higher means better tolerated. The authors read about 0.1 or less as lethal, 0.1-0.2 as attenuated and 0.2 or more as tolerated. A change reads original residue, position, new residue.

| change | base | RC index |
|---|---|---|
| N37D | A2361G | 0.0783 |
| N37I | A2362T | 0.0616 |
| N37K | T2363A | 0.0894 |
| L38M | T2364A | 0.0342 |
| L38S | T2365C | 0.101 |
| L38F | G2366T | 0.187 |
| P39T | C2367A | 0.146 |
| P39A | C2367G | 0.176 |
| P39Q | C2368A | 0.116 |
| P39L | C2368T | 0.405 |
| G40R | G2370C | 0.0641 |
| G40A | G2371C | 0.0831 |
| R41G | A2373G | 0.0553 |
| W42R | T2376C | 0.0623 |
| K45E | A2385G | 0.0632 |
| K45I | A2386T | 0.0456 |
| M46L | A2388C | 0.125 |
| M46V | A2388G | 0.0358 |
| M46L | A2388T | 0.0766 |
| M46K | T2389A | 0.0768 |
| M46T | T2389C | 0.100 |
| G48R | G2394C | 0.160 |
| G48W | G2394T | 0.0884 |
| I50F | A2400T | 0.0641 |
| I50N | T2401A | 0.0449 |
| I50T | T2401C | 0.183 |
| G51E | G2404A | 0.660 |
| G52D | G2407A | 0.163 |
| G52A | G2407C | 0.0650 |
| G52V | G2407T | 0.748 |
| F53S | T2410C | 0.105 |
| I54V | A2412G | 0.0727 |
| I54F | A2412T | 0.101 |
| I54T | T2413C | 0.0717 |
| K55I | A2416T | 0.0255 |
| K55N | A2417T | 0.0351 |
| V56L | G2418T | 0.0511 |
| R57G | A2421G | 0.0691 |
| R57K | G2422A | 0.180 |
| R57I | G2422T | 0.213 |
| R57S | A2423T | 0.0357 |
| Q58K | C2424A | 0.121 |
| Q58R | A2425G | 0.0727 |
| Q58H | G2426T | 0.0620 |
| Y59H | T2427C | 0.218 |
| D60N | G2430A | 0.385 |
| D60G | A2431G | 0.0397 |
| D60V | A2431T | 0.0516 |
| Q61K | C2433A | 0.156 |
| Q61H | G2435T | 0.145 |
| I62V | A2436G | 0.0496 |
| I62K | T2437A | 0.0723 |
| I62T | T2437C | 0.0641 |
| L63I | C2439A | 0.893 |
| L63F | C2439T | 0.0802 |
| L63P | T2440C | 0.156 |
| I64V | A2442G | 0.0775 |
| I64L | A2442T | 0.0547 |
| I64T | T2443C | 0.0507 |
| E65K | G2445A | 0.513 |
| E65G | A2446G | 0.0912 |
| E65D | A2447T | 0.0362 |
| I66V | A2448G | 0.111 |
| I66F | A2448T | 0.0529 |
| C67F | G2452T | 0.0346 |
| G68R | G2454A | 0.133 |
| H69R | A2458G | 0.0565 |
| H69Q | T2459A | 0.0523 |
| K70R | A2461G | 0.0811 |
| K70N | A2462T | 0.0576 |
| A71T | G2463A | 0.168 |
| A71S | G2463T | 0.0503 |
| A71D | C2464A | 0.231 |
| A71G | C2464G | 0.0562 |
| I72V | A2466G | 0.0434 |
| I72T | T2467C | 0.0632 |
| G73S | G2469A | 0.197 |
| G73D | G2470A | 0.0716 |
| T74A | A2472G | 0.0894 |
| T74I | C2473T | 0.0622 |
| V75L | G2475T | 0.0805 |
| V75G | T2476G | 0.0266 |
| L76I | T2478A | 0.0597 |
| L76V | T2478G | 0.0441 |
| L76S | T2479C | 0.0842 |
| V77I | G2481A | 0.0751 |
| V77A | T2482C | 0.120 |
| P79S | C2487T | 0.0709 |
| P79H | C2488A | 0.188 |
| P79L | C2488T | 0.0848 |
| T80A | A2490G | 0.0467 |
| T80S | A2490T | 0.0642 |
| T80R | C2491G | 0.0622 |
| T80I | C2491T | 0.116 |
| P81H | C2494A | 0.111 |
| P81R | C2494G | 0.0605 |
| V82L | G2496C | 0.0913 |
| V82D | T2497A | 0.0530 |
| V82A | T2497C | 0.127 |
| V82G | T2497G | 0.0942 |
| N83D | A2499G | 0.0589 |
| N83S | A2500G | 0.0470 |
| N83I | A2500T | 0.0543 |
| I85V | A2505G | 0.0868 |
| I85N | T2506A | 0.0819 |
| I85T | T2506C | 0.0370 |
| R87I | G2512T | 0.0678 |
| N88D | A2514G | 0.0690 |
| N88Y | A2514T | 0.0431 |
| N88S | A2515G | 0.188 |
| N88K | T2516A | 0.0343 |
| L89M | C2517A | 0.0629 |
| L90S | T2521C | 0.0719 |
| L90F | G2522T | 0.323 |
| T91N | C2524A | 0.0707 |
| Q92P | A2527C | 0.191 |
| Q92R | A2527G | 0.201 |
| I93N | T2530A | 0.0407 |
| I93T | T2530C | 0.0713 |
| G94R | G2532C | 0.0490 |
| G94D | G2533A | 0.188 |
| G94V | G2533T | 0.0821 |
| C95R | T2535C | 0.328 |
| C95Y | G2536A | 0.314 |
| C95S | G2536C | 0.0436 |
| C95W | C2537G | 0.0516 |
| T96A | A2538G | 0.0528 |
| T96N | C2539A | 0.0875 |
| L97I | T2541A | 0.0695 |
| L97V | T2541G | 0.0547 |
| N98D | A2544G | 0.0447 |
| N98I | A2545T | 0.0391 |
| N98K | T2546A | 0.0625 |
| F99I | T2547A | 0.0871 |
| F99S | T2548C | 0.0869 |

The last 7 entries again:

{"change": "L97I", "base": "T2541A", "RC index": 0.0695}
{"change": "L97V", "base": "T2541G", "RC index": 0.0547}
{"change": "N98D", "base": "A2544G", "RC index": 0.0447}
{"change": "N98I", "base": "A2545T", "RC index": 0.0391}
{"change": "N98K", "base": "T2546A", "RC index": 0.0625}
{"change": "F99I", "base": "T2547A", "RC index": 0.0871}
{"change": "F99S", "base": "T2548C", "RC index": 0.0869}

An index over 1, which the authors read as above wild type, was rare (1.9% of all changes in the genome). Nucleotide positions follow pNL4-3. Since each clone held several changes (about five per kb), neutral changes can read low.

Reference: Al-Mawsawi et al. 2014, doi:10.1186/s12977-014-0124-6.